A mixed list of measured activities; the numbers were collected in NIAID ChemDB.

Common to all: growth or infection tests; species: HIV-1

Lines come from different laboratories, so protocols vary. ECn: concentration that inhibits the pathogen or its effect by n%. Blank or dashed fields: not listed here.

compound,strain,read-out,method,changes,cells,value
O=C(O[C@H]1CN2CC[C@H](O)[C@@H]2[C@@H](O)[C@@H]1O)c1ccc(Br)cc1,GB8,EC50,syncytia,-,JM,0.75 µg/mL
Cc1c(O)cccc1C(=O)N[C@@H](Cc1ccccc1)[C@H](O)C(=O)N1CO[C@H](C)[C@H]1C(=O)NC(C)(C)C,IIIB,EC50,-,-,MT-4,1.4 µM
Cc1cccc(C(=O)O[C@H]2CN3CC[C@H](O)[C@@H]3[C@@H](O)[C@@H]2O)c1,GB8,EC50,syncytia,-,JM,7 µg/mL
CCc1c(O)cccc1C(=O)N[C@@H](Cc1ccccc1)[C@H](O)C(=O)N1CSC(C)(C)[C@H]1C(=O)NCc1ccccc1C,IIIB,EC50,-,-,MT-4,0.18 µM
CN=C(NC#N)NCCSCc1nc[nH]c1C,IIIB,EC50,p24,-,MT-4,0.0466 µM
Cc1ccc(C(=O)O[C@H]2CN3CC[C@H](O)[C@@H]3[C@@H](O)[C@@H]2O)cc1,GB8,EC50,syncytia,-,JM,5.8 µg/mL
Cc1ccccc1CNC(=O)[C@@H]1CSCN1C(=O)[C@@H](O)[C@H](Cc1ccccc1)NC(=O)c1cccc(O)c1C,IIIB,EC50,-,-,MT-4,5.35 µM
C#C[C@]1(CO)O[C@@H](n2cnc3c(N)nc(F)nc32)C[C@@H]1O,Clinical isolate,EC50,single cycle / fluorescence,A114S/M184V,PBMC,0.0057 µM
CCc1c(O)cccc1C(=O)N[C@@H](Cc1ccccc1)[C@H](O)C(=O)N1CSC[C@H]1C(=O)NCc1ccccc1C,IIIB,EC50,-,-,MT-4,4.15 µM
Cc1ccnc(N2C(=O)CSC2c2c(Cl)cccc2Cl)n1,-,EC50,cytopathic effect,RT-Y188H,CEM,7.35 µM
CCCc1cc(=O)oc2c3c(c4c(c12)OC(C)(C)C=C4)O[C@@H](C)[C@H](C)[C@@H]3O,NL4-3,EC50,cytopathic effect / XTT,RT-K103N,CEM + CEM-SS,1.2 µM
Cc1cn([C@H]2C[C@H](N=[N+]=[N-])[C@@H](CO)O2)c(=O)[nH]c1=O,IIIB,EC50,cytopathic effect,-,CEM,0.007 µM
[N-]=[N+]=NCC[C@@H](Cn1cnc2c(=O)[nH]c(N)nc21)OCP(=O)(O)O,BRU,EC50,XTT,-,CEM,>100 µM
CC1=C(C(=O)Nc2ccc(Cl)c(C(=O)OC(C)C)c2)SCCO1,IIIB,EC50,cytopathic effect / XTT,-,PBMC,0.1 µM
CN[C@H]1CO[C@@H]2OCC[C@H](OC(=O)N[C@@H](Cc3ccccc3)[C@H](O)CN(CC(C)C)S(=O)(=O)c3ccc4nc(NC5CC5)sc4c3)[C@@H]21,NL4-3,EC50,p24 / luminescence,L23I E34Q K43I M46I I50L G51A L63P A71V V82A T91A,MT-4,0.0031 µM
Cc1cc(C)nc(N2C(=O)CSC2c2c(Cl)cccc2Cl)n1,-,EC50,cytopathic effect,RT-Y181C,CEM,2.54 µM
Cc1c(O)cccc1C(=O)N[C@@H](Cc1ccccc1)[C@H](O)C(=O)N1CS(=O)(=O)C[C@H]1C(=O)NC(C)(C)C,IIIB,EC50,-,-,MT-4,1.8 µM
CCc1c(Sc2ccccn2)n(COCc2ccccc2)c(=O)[nH]c1=O,IIIB,EC50,cytopathic effect / XTT,-,U-937,0.022 µM
Nc1nc2c(ncn2C[C@@H](CF)OCP(=O)(O)O)c(=O)[nH]1,BRU,EC50,XTT,-,CEM,77 µM
Cc1cn([C@H]2C[C@H](N=[N+]=[N-])[C@@H](CO)O2)c(=O)[nH]c1=O,IIIB,EC50,XTT,-,CEM + CEM-SS,0.003 µM
Cc1cn([C@H]2C=C[C@@H](COC(=O)NCCSC(=O)OC[C@@H]3C=C[C@H](n4cc(C)c(=O)[nH]c4=O)O3)O2)c(=O)[nH]c1=O,NNRTI-resistant (RT Y181C),EC50,cytopathic effect / MTT,RT-Y181C,MT-4,7 µM
CC(C)(C)NC(=O)[C@H]1N(C(=O)[C@@H](O)[C@H](Cc2ccccc2)NC(=O)[C@H](CC(N)=O)NC(=O)COc2cccc3ccccc23)CSC1(C)C,AZT-insensitive,EC50,p24,-,PBMC(PHA STIM.) + PBMC,0.17 µM
Fc1cccc(F)c1[C@H]1SCc2nc3ccccc3n21,HE,EC50,cytopathic effect,-,MT-4,0.31 µM
CN=C1CN=C(c2ccc[nH]2)c2cc(Cl)ccc2N1,N1T,EC50,antigen,-,Jurkat cells,0.2 µM
CCN[C@H]1CO[C@@H]2OCC[C@H](OC(=O)N[C@@H](Cc3cccc(OC)c3)[C@H](O)CN(CC(C)C)S(=O)(=O)c3ccc4nc(NC(C)C)sc4c3)[C@@H]21,NL4-3,EC50,p24 / luminescence,L10F M46I I54V V82A,MT-4,0.035 µM
Cc1cn([C@H]2C=C[C@@H](CO)O2)c(=O)[nH]c1=O,NNRTI-resistant (RT K103N Y181C),EC50,cytopathic effect / MTT,RT-K103N Y181C,MT-4,1.8 µM
COCCNC(=O)[C@@H](NC(=O)[C@H](Cc1ccc(OC)c(OC)c1OC)C[C@H](O)[C@H](Cc1ccccc1)NC(=O)OC(C)(C)C)C(C)C,-,EC99,-,-,PBL,0.12 µM
Nc1ccn([C@@H]2CO[C@H](CO)S2)c(=O)n1,HXB2,EC50,p24,-,C8166,2 µM
CC(C)Nc1cccnc1N1CCN(C(=O)c2ccc(-c3ccc(NS(C)(=O)=O)cc3)[nH]2)CC1,IIIB,EC50,cytopathic effect / MTT,-,MT-4,0.9 µM
O=C1CSC(c2c(F)cccc2Cl)N1c1ncccn1,IIIB,EC50,cytopathic effect,-,MT-4,0.581 µM
c1ccc2c(c1)sc1nccn12,IIIB,EC50,cytopathic effect / XTT,-,CEM + CEM-SS,0.35 µM
Cc1cn([C@@H]2O[C@H](CO[Si](C)(C)C(C)(C)C)C3(OS(=O)(=O)C=C3N)[C@H]2O[Si](C)(C)C(C)(C)C)c(=O)n(C)c1=O,IIIB,EC50,cytopathic effect / XTT,RT-K103N,CEM,0.22 µM
CC(C)CN(C[C@@H](O)[C@H](Cc1ccccc1)NC(=O)O[C@H]1CCOC1)S(=O)(=O)c1ccc(N)cc1,NL4-3,EC50,p24 / luminescence,-,MT-4,0.023 µM
CC(C)Nc1cccnc1N1CCN(C(=O)c2cc3cc(NS(C)(=O)=O)ccc3[nH]2)CC1,IIIB,EC50,MTT,-,MT-4,0.32 µM
COc1ccc(S(=O)(=O)N(CC(C)C)C[C@@H](O)[C@H](Cc2ccccc2)NC(=O)O[C@H]2CCO[C@H]3OC[C@H](O)[C@H]32)cc1,NL4-3,EC50,p24 / luminescence,L10I I15V K20R L24I V32I M36I M46I I54V I62V L63P K70Q V82A L88M,MT-4,0.014 µM
Nc1nc2c(ncn2C[C@H](CCO)OCP(=O)(O)O)c(=O)[nH]1,BRU,EC50,XTT,-,CEM,>100 µM
CC(C)=CCN1Cc2cc(Cl)cc3[nH]c(=S)n(c23)C[C@@H]1C,IIIB,EC50,cytopathic effect / XTT,RT-V106N,CEM,1.6 µM
COc1cc(C)nc(N2C(=O)CSC2c2c(F)cccc2F)n1,IIIB,EC50,cytopathic effect,-,MT-4,0.264 µM
O=c1[nH]cnc2c1ncn2[C@H]1CC[C@@H](CO)O1,WT,EC50,cytopathic effect / MTT,-,MT-4,10 µM
CCCc1cc(=O)oc2c3c(c4c(c12)OC(C)(C)C=C4)O[C@H](C)[C@@H](C)[C@@H]3O,UC10-resistant (RT K103N),EC50,XTT,RT-K103N,CEM + CEM-SS,>27 µM
Fc1cccc(F)c1C1SCc2nc3ccccc3n21,-,EC50,cytopathic effect,RT-Y181C,CEM,13.8 µM
Cc1ccnc2c1NC(=O)c1cccnc1N2C1CC1,CLADE A,EC50,RT activity,-,PBMC,0.06 µM
COc1cc(C)nc(N2C(=O)CSC2c2c(Cl)cccc2Cl)n1,-,EC50,cytopathic effect,RT-Y181C,CEM,6.75 µM

A second listing of 6 rows from above:

compound	strain	read-out	method	changes	cells	value
CCN[C@H]1CO[C@@H]2OCC[C@H](OC(=O)N[C@@H](Cc3cccc(OC)c3)[C@H](O)CN(CC(C)C)S(=O)(=O)c3ccc4nc(NC(C)C)sc4c3)[C@@H]21	NL4-3	EC50	p24 / luminescence	L10F M46I I54V V82A	MT-4	0.035 µM
Cc1cn([C@H]2C=C[C@@H](COC(=O)NCCSC(=O)OC[C@@H]3C=C[C@H](n4cc(C)c(=O)[nH]c4=O)O3)O2)c(=O)[nH]c1=O	NNRTI-resistant (RT Y181C)	EC50	cytopathic effect / MTT	RT-Y181C	MT-4	7 µM
CCCc1cc(=O)oc2c3c(c4c(c12)OC(C)(C)C=C4)O[C@H](C)[C@@H](C)[C@@H]3O	UC10-resistant (RT K103N)	EC50	XTT	RT-K103N	CEM + CEM-SS	>27 µM
Cc1cccc(C(=O)O[C@H]2CN3CC[C@H](O)[C@@H]3[C@@H](O)[C@@H]2O)c1	GB8	EC50	syncytia	-	JM	7 µg/mL
Cc1c(O)cccc1C(=O)N[C@@H](Cc1ccccc1)[C@H](O)C(=O)N1CO[C@H](C)[C@H]1C(=O)NC(C)(C)C	IIIB	EC50	-	-	MT-4	1.4 µM
O=C1CSC(c2c(F)cccc2Cl)N1c1ncccn1	IIIB	EC50	cytopathic effect	-	MT-4	0.581 µM